Assay results as given in paper PMC6669600 (Viruses, 2019).

Each compound was assayed on HIV-1NL4-3 pseudovirus. Details: HIV-1NL4-3(D36G) pseudovirus entry, TZM-bl cells; triplicate, repeated three times, mean ± SD; SD; read-out: Inhibition (IC50, nM) NL4-3 entry.
Type: cell-based
For `CC[C@H](C)[C@H](NC(=O)[C@H](CC(C)C)NC(=O)[C@H](CCC(=O)O)NC(=O)[C@H](CCC(=O)O)NC(=O)[C@@H](NC(=O)[C@H](CCCCN)NC(=O)[C@H](CCCCN)NC(=O)[C@@H](NC(=O)[C@H](Cc1ccc(O)cc1)NC(=O)[C@H](CCC(=O)O)NC(=O)[C@H](CCC(=O)O)NC(=O)[C@@H](NC(=O)[C@H](CCCCN)NC(=O)[C@H](CCCCN)NC(=O)[C@H](CC(=O)O)NC(=O)[C@H](Cc1c[nH]c2ccccc12)NC(=O)[C@H](CCC(=O)O)NC(=O)[C@H](CCC(=O)O)NC(=O)[C@H](Cc1c[nH]c2ccccc12)NC(C)=O)[C@@H](C)CC)[C@@H](C)O)[C@@H](C)CC)C(=O)N[C@@H](CCCCN)C(=O)N[C@@H](CCCCN)C(=O)N[C@@H](CO)C(=O)N[C@@H](CCC(=O)O)C(=O)N[C@@H](CCC(=O)O)C(=O)N[C@@H](CCC(N)=O)C(=O)N[C@@H](CCC(N)=O)C(=O)N[C@@H](CCCCN)C(=O)N[C@@H](CCCCN)C(=O)N[C@@H](CC(N)=O)C(=O)N[C@@H](CCC(=O)O)C(N)=O` [SC30EK], the IC50 was 1 nM. `CC[C@H](C)[C@H](NC(=O)[C@H](CC(C)C)NC(=O)[C@H](CCC(=O)O)NC(=O)[C@H](CCC(=O)O)NC(=O)[C@@H](NC(=O)[C@H](CCCCN)NC(=O)[C@H](CCCCN)NC(=O)[C@@H](NC(=O)[C@H](Cc1ccc(O)cc1)NC(=O)[C@H](CCC(=O)O)NC(=O)[C@H](CCC(=O)O)NC(=O)[C@@H](NC(=O)[C@H](CCCCN)NC(=O)[C@H](CCCCN)NC(=O)[C@H](CC(=O)O)NC(=O)[C@H](Cc1c[nH]c2ccccc12)NC(=O)[C@H](CCC(=O)O)NC(=O)[C@H](CCC(=O)O)NC(=O)[C@H](Cc1c[nH]c2ccccc12)NC(C)=O)[C@@H](C)CC)[C@@H](C)O)[C@@H](C)CC)C(=O)N[C@@H](CCCCN)C(=O)N[C@@H](CCCCN)C(=O)N[C@@H](CO)C(=O)N[C@@H](CCC(=O)O)C(=O)N[C@@H](CCC(=O)O)C(=O)N[C@@H](CCC(N)=O)C(=O)N[C@@H](CCC(N)=O)C(=O)N[C@@H](CCCCN)C(=O)N[C@@H](CCCCN)C(=O)N[C@@H](CC(N)=O)C(=O)N[C@@H](CCC(=O)O)C(=O)N[C@@H](CCCCN)C(N)=O` [SC31EK] was tested, and the IC50 was 1.3 ± 0.2 nM. `CC[C@H](C)[C@H](NC(=O)[C@H](CC(C)C)NC(=O)[C@H](CCC(=O)O)NC(=O)[C@H](CCC(=O)O)NC(=O)[C@@H](NC(=O)[C@H](CCCCN)NC(=O)[C@H](CCCCN)NC(=O)[C@@H](NC(=O)[C@H](Cc1ccc(O)cc1)NC(=O)[C@H](CCC(=O)O)NC(=O)[C@H](CCC(=O)O)NC(=O)[C@@H](NC(=O)[C@H](CCCCN)NC(=O)[C@H](CCCCN)NC(=O)[C@H](CC(=O)O)NC(=O)[C@H](Cc1c[nH]c2ccccc12)NC(=O)[C@H](CCC(=O)O)NC(=O)[C@H](CCC(=O)O)NC(=O)[C@H](Cc1c[nH]c2ccccc12)NC(C)=O)[C@@H](C)CC)[C@@H](C)O)[C@@H](C)CC)C(=O)N[C@@H](CCCCN)C(=O)N[C@@H](CCCCN)C(=O)N[C@@H](CO)C(=O)N[C@@H](CCC(=O)O)C(=O)N[C@@H](CCC(=O)O)C(=O)N[C@@H](CCC(N)=O)C(=O)N[C@@H](CCC(N)=O)C(=O)N[C@@H](CCCCN)C(=O)N[C@@H](CCCCN)C(=O)N[C@@H](CC(N)=O)C(=O)N[C@@H](CCC(=O)O)C(=O)N[C@@H](CCCCN)C(=O)N[C@@H](CCC(=O)O)C(N)=O` [SC32EK] gave an IC50 of 1.1 ± 0.2 nM. In the case of `CC[C@H](C)[C@H](NC(=O)[C@H](CC(C)C)NC(=O)[C@H](CCC(=O)O)NC(=O)[C@H](CCC(=O)O)NC(=O)[C@@H](NC(=O)[C@H](CCCCN)NC(=O)[C@H](CCCCN)NC(=O)[C@@H](NC(=O)[C@H](Cc1ccc(O)cc1)NC(=O)[C@H](CCC(=O)O)NC(=O)[C@H](CCC(=O)O)NC(=O)[C@@H](NC(=O)[C@H](CCCCN)NC(=O)[C@H](CCCCN)NC(=O)[C@H](CC(=O)O)NC(=O)[C@H](Cc1c[nH]c2ccccc12)NC(=O)[C@H](CCC(=O)O)NC(=O)[C@H](CCC(=O)O)NC(=O)[C@H](Cc1c[nH]c2ccccc12)NC(C)=O)[C@@H](C)CC)[C@@H](C)O)[C@@H](C)CC)C(=O)N[C@@H](CCCCN)C(=O)N[C@@H](CCCCN)C(=O)N[C@@H](CO)C(=O)N[C@@H](CCC(=O)O)C(=O)N[C@@H](CCC(=O)O)C(=O)N[C@@H](CCC(N)=O)C(=O)N[C@@H](CCC(N)=O)C(=O)N[C@@H](CCCCN)C(=O)N[C@@H](CCCCN)C(=O)N[C@@H](CC(N)=O)C(=O)N[C@@H](CCC(=O)O)C(=O)N[C@@H](CCCCN)C(=O)N[C@@H](CCC(=O)O)C(=O)N[C@@H](CC(C)C)C(N)=O` [SC33EK], the IC50 is reported as 1.1 ± 0.1 nM. Compound `CC[C@H](C)[C@H](NC(=O)[C@H](CC(C)C)NC(=O)[C@H](CCC(=O)O)NC(=O)[C@H](CCC(=O)O)NC(=O)[C@@H](NC(=O)[C@H](CCCCN)NC(=O)[C@H](CCCCN)NC(=O)[C@@H](NC(=O)[C@H](Cc1ccc(O)cc1)NC(=O)[C@H](CCC(=O)O)NC(=O)[C@H](CCC(=O)O)NC(=O)[C@@H](NC(=O)[C@H](CCCCN)NC(=O)[C@H](CCCCN)NC(=O)[C@H](CC(=O)O)NC(=O)[C@H](Cc1c[nH]c2ccccc12)NC(=O)[C@H](CCC(=O)O)NC(=O)[C@H](CCC(=O)O)NC(=O)[C@H](Cc1c[nH]c2ccccc12)NC(C)=O)[C@@H](C)CC)[C@@H](C)O)[C@@H](C)CC)C(=O)N[C@@H](CCCCN)C(=O)N[C@@H](CCCCN)C(=O)N[C@@H](CO)C(=O)N[C@@H](CCC(=O)O)C(=O)N[C@@H](CCC(=O)O)C(=O)N[C@@H](CCC(N)=O)C(=O)N[C@@H](CCC(N)=O)C(=O)N[C@@H](CCCCN)C(=O)N[C@@H](CCCCN)C(=O)N[C@@H](CC(N)=O)C(=O)N[C@@H](CCC(=O)O)C(=O)N[C@@H](CCCCN)C(=O)N[C@@H](CCC(=O)O)C(=O)N[C@@H](CC(C)C)C(=O)N[C@@H](CCCCN)C(N)=O` [SC34EK, reference compound] has an IC50 of 0.9 ± 0.1 nM. `CC[C@H](C)[C@H](NC(=O)[C@H](CC(C)C)NC(=O)[C@H](CCC(=O)O)NC(=O)[C@H](CCC(=O)O)NC(=O)[C@@H](NC(=O)[C@H](CCCCN)NC(=O)[C@H](CCCCN)NC(=O)[C@@H](NC(=O)[C@H](Cc1ccc(O)cc1)NC(=O)[C@H](CCC(=O)O)NC(=O)[C@H](CCC(=O)O)NC(=O)[C@@H](NC(=O)[C@H](CCCCN)NC(=O)[C@H](CCCNC(=N)N)NC(=O)[C@H](CC(=O)O)NC(=O)[C@H](Cc1c[nH]c2ccccc12)NC(=O)[C@H](CCC(=O)O)NC(=O)[C@H](CCC(=O)O)NC(=O)[C@H](Cc1c[nH]c2ccccc12)NC(C)=O)[C@@H](C)CC)[C@@H](C)O)[C@@H](C)CC)C(=O)N[C@@H](CCCCN)C(=O)N[C@@H](CCCCN)C(=O)N[C@@H](CO)C(=O)N[C@@H](CCC(N)=O)C(=O)N[C@@H](CC(N)=O)C(=O)N[C@@H](CCC(N)=O)C(=O)N[C@@H](CCC(N)=O)C(=O)N[C@@H](CCC(=O)O)C(=O)N[C@@H](CCCCN)C(=O)N[C@@H](CC(N)=O)C(N)=O` [WQ-EKN] showed an IC50 of 1.4 ± 0.2 nM. `CC[C@H](C)[C@H](NC(=O)[C@H](CCC(N)=O)NC(=O)[C@H](CCC(N)=O)NC(=O)[C@H](CC(N)=O)NC(=O)[C@H](CCC(N)=O)NC(=O)[C@H](CO)NC(=O)[C@H](CCCCN)NC(=O)[C@H](CCCCN)NC(=O)[C@@H](NC(=O)[C@H](CC(C)C)NC(=O)[C@H](CCC(=O)O)NC(=O)[C@H](CCC(=O)O)NC(=O)[C@@H](NC(=O)[C@H](CCCCN)NC(=O)[C@H](CCCCN)NC(=O)[C@@H](NC(=O)[C@H](Cc1ccc(O)cc1)NC(=O)[C@H](CCC(=O)O)NC(=O)[C@H](CCC(=O)O)NC(=O)[C@@H](NC(=O)[C@H](CCCCN)NC(=O)[C@H](CCCNC(=N)N)NC(=O)[C@H](CC(=O)O)NC(=O)[C@H](Cc1c[nH]c2ccccc12)NC(=O)[C@H](CCC(=O)O)NC(=O)[C@H](CCC(=O)O)NC(=O)[C@H](Cc1c[nH]c2ccccc12)NC(C)=O)[C@@H](C)CC)[C@@H](C)O)[C@@H](C)CC)[C@@H](C)CC)C(=O)N[C@@H](CC(=O)O)C(=O)N[C@@H](CC(C)C)C(N)=O` [WQ-IDL, reference compound] was tested, and the IC50 was 1.5 ± 0.2 nM.

Same assay, conditions: HIV-1NL4-3(D36G) pseudovirus entry, TZM-bl cells; triplicate, repeated three times, mean ± SD; read-out: Inhibition (IC50, nM) NL4-3 entry
For `CC[C@H](C)[C@H](NC(=O)[C@H](CC(C)C)NC(=O)[C@H](CCC(=O)O)NC(=O)[C@H](CCC(=O)O)NC(=O)[C@@H](NC(=O)[C@H](CCCCN)NC(=O)[C@H](CCCCN)NC(=O)[C@@H](NC(=O)[C@H](Cc1ccc(O)cc1)NC(=O)[C@H](CCC(=O)O)NC(=O)[C@H](CCC(=O)O)NC(=O)[C@@H](NC(=O)[C@H](CCCCN)NC(=O)[C@H](CCCCN)NC(=O)[C@H](CC(=O)O)NC(=O)[C@H](Cc1c[nH]c2ccccc12)NC(=O)[C@H](CCC(=O)O)NC(=O)[C@H](CCC(=O)O)NC(=O)[C@H](Cc1c[nH]c2ccccc12)NC(C)=O)[C@@H](C)CC)[C@@H](C)O)[C@@H](C)CC)C(=O)N[C@@H](CCCCN)C(=O)N[C@@H](CCCCN)C(=O)N[C@@H](CO)C(=O)N[C@@H](CCC(=O)O)C(=O)N[C@@H](CCC(=O)O)C(=O)N[C@@H](CCC(N)=O)C(=O)N[C@@H](CCC(N)=O)C(=O)N[C@@H](CCCCN)C(=O)N[C@@H](CCCCN)C(N)=O` [SC28EK], the IC50 was 18 nM. `CC[C@H](C)[C@H](NC(=O)[C@H](CC(C)C)NC(=O)[C@H](CCC(=O)O)NC(=O)[C@H](CCC(=O)O)NC(=O)[C@@H](NC(=O)[C@H](CCCCN)NC(=O)[C@H](CCCCN)NC(=O)[C@@H](NC(=O)[C@H](Cc1ccc(O)cc1)NC(=O)[C@H](CCC(=O)O)NC(=O)[C@H](CCC(=O)O)NC(=O)[C@@H](NC(=O)[C@H](CCCCN)NC(=O)[C@H](CCCCN)NC(=O)[C@H](CC(=O)O)NC(=O)[C@H](Cc1c[nH]c2ccccc12)NC(=O)[C@H](CCC(=O)O)NC(=O)[C@H](CCC(=O)O)NC(=O)[C@H](Cc1c[nH]c2ccccc12)NC(C)=O)[C@@H](C)CC)[C@@H](C)O)[C@@H](C)CC)C(=O)N[C@@H](CCCCN)C(=O)N[C@@H](CCCCN)C(=O)N[C@@H](CO)C(=O)N[C@@H](CCC(=O)O)C(=O)N[C@@H](CCC(=O)O)C(=O)N[C@@H](CCC(N)=O)C(=O)N[C@@H](CCC(N)=O)C(=O)N[C@@H](CCCCN)C(=O)N[C@@H](CCCCN)C(=O)N[C@@H](CC(N)=O)C(N)=O` [SC29EK, reference compound] was tested, and the IC50 was 1.2 nM.
